Reference: patent publication US7574340B2 (priority 2003, dated 2009)

By UniProt entry, the sequences of proteins in these tests, tags left out. Residues count along the entry.
UniProt P0DPI0, 2-448 limits assumed: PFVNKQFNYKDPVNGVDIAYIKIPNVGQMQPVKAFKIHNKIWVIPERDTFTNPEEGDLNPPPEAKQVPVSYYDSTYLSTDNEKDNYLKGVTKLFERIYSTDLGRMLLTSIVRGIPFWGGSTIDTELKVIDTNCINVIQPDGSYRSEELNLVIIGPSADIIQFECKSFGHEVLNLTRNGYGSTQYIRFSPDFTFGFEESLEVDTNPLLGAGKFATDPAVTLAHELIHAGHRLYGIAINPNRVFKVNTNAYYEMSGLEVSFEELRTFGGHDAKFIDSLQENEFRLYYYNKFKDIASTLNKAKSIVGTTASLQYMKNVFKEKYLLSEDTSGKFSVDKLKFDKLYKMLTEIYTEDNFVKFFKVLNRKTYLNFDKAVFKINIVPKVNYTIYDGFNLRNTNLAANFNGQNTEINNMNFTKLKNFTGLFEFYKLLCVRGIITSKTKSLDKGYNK

Target: BoNT/A LC (Clostridium botulinum, UniProt P0DPI0)

Nc1ccc(S(=O)(=O)Nc2ncccn2)cc1 [sulfadiazine]
inhibition of BoNT/A LC (in words): no inhibition was observed
